Measurements as given in patent US20180325914A1, “INCREASING STORAGE OF VITAMIN A, VITAMIN D AND/OR LIPIDS” (Salk Institute for Biological Studies, priority 2014, published 2018).

Tested on: primary HSCs

For `Cc1sc2c(c1C)C(c1ccc(Cl)cc1)=N[C@@H](CC(=O)OC(C)(C)C)c1nnc(C)n1-2` [JQ1, (S)-tert-butyl 2-(4-(4-chlorophenyl)-2,3,9-trimethyl-6H-thieno[3,2-f][1,2,4]triazolo[4,3-a][1,4]diazepin-6-yl)acetate], the “log2(fold_change), gene Marveld1” value was 0.02774.
